Anti-infective test results gathered from many reports (values: NIAID ChemDB through PubChem).

All rows: tests on isolated targets; agent: HIV-1; protein: Protease; endpoint: IC50

ICn is the concentration giving n% inhibition. Conditions beyond the fields shown may differ between rows. An empty or dashed field is not shown.

compound,changes,read by,setting,value
COc1ccc(S(=O)(=O)N[C@@H](C)C(=O)N[C@H](C(=O)N[C@@H](Cc2ccccc2)C(O)C(O)[C@H](Cc2ccccc2)NC(=O)[C@@H](NC(=O)[C@H](C)NS(=O)(=O)c2ccc(OC)cc2)C(C)C)C(C)C)cc1,,,,0.02 µM
CC(C)[C@H](NC(=O)CC(N)c1ccccc1)C(=O)N[C@@H](Cc1ccccc1)[C@H](O)CNC[C@@H](O)[C@H](Cc1ccccc1)NC(=O)OC(C)(C)C,,HPLC,pH 5.5,<10 µM
CC[C@@H](C)[C@H](NC(=O)[C@@H]1CCCN1C(=O)[C@@H](O)[C@H](CC1CCCCC1)NC(=O)[C@H](CC(N)=O)NC(=O)c1cnccn1)C(=O)N[C@H](C(N)=O)C(C)C,,,,<5 µM
CC(C)c1nc(COC(=O)N[C@H](C(=O)N[C@@H](Cc2ccccc2)[C@H](O)CN2CCN(Cc3ccncc3)C[C@H]2C(=O)NC(C)(C)C)C(C)C)cs1,,substrate cleavage,,<0.0005 µM
CSCC[C@H](NC(=O)CCCCCCCCCCCCCCC(=O)N[C@H](C(=O)N[C@@H](CC(C)C)C(=O)N[C@@H](Cc1ccccc1)C(N)=O)C(C)O)C(=O)N[C@@H](Cc1ccccc1)C(=O)O,,HPLC,,2.7 µM
CCC(C)(C)OC(=O)N[C@@H](Cc1ccccc1)[C@H](O)CNC[C@@H](O)[C@H](Cc1ccccc1)NC(=O)OC(C)(C)CC,,HPLC,pH 5.5,<10 µM
CC(C)c1nc(COC(=O)N[C@H](C(=O)N[C@@H](Cc2ccccc2)[C@H](O)CN2CCN(Cc3ccccc3)C[C@H]2C(=O)NC(C)(C)C)C(C)C)cs1,,substrate cleavage,,<0.0005 µM
CC(C)C[C@H](NC(=O)CCCCCCCCCCCCCCC(=O)N[C@@H](CC(N)=O)C(=O)N[C@@H](Cc1cccc2ccccc12)C(=O)O)C(=O)N[C@@H](CC(C)C)C(=O)N[C@@H](Cc1ccccc1)C(N)=O,,HPLC,,0.39 µM
NC(=O)C[C@H](NC(=O)OCc1ccccc1)C(=O)N[C@@H](Cc1ccccc1)[C@H](O)C(=O)N1CCC[C@H]1C(=O)N1CC1,,,,<5 µM
CC(C)[C@H](NC(=O)[C@H](C)NC(=O)c1cccnc1)C(=O)N[C@@H](Cc1ccccc1)C(O)C(O)[C@H](Cc1ccccc1)NC(=O)[C@@H](NC(=O)[C@H](C)NC(=O)c1cccnc1)C(C)C,PR-V82F,,,0.043 µM
CC(C)C[C@H](NC(=O)[C@@H](NC(=O)CCCCCCCCCCCCCCC(=O)N[C@@H](CC(N)=O)C(=O)N[C@@H](Cc1cccc2ccccc12)C(=O)O)C(C)O)C(=O)N[C@@H](Cc1ccccc1)C(N)=O,,,,2.9 µM
CON[C@H](C(=O)NC(=O)[C@H]1N(C(=O)[C@@H](O)[C@H](Cc2ccccc2)NC(=O)[C@@H](NC(=O)[C@H](Cc2ccccc2)NC(C)=O)C(C)C)CSC1(C)C)C(C)C,PR-V82A,,,0.016 µM
CC(C)(C)NC(=O)[C@@H]1CCCN1C(=O)[C@@H](O)[C@H](Cc1ccccc1)NC(=O)[C@H](CC(N)=O)NS(=O)(=O)c1cccc2ccccc12,,,,>0.05 µM
CCc1ncc(COC(=O)N[C@H](C(=O)N[C@@H](Cc2ccccc2)[C@H](O)CN2CCN(Cc3ccc(OC)c(OC)c3)C[C@H]2C(=O)NC(C)(C)C)C(C)C)s1,,substrate cleavage,,<1 µM
CC(C)[C@H](NC(=O)[C@H](C)NC(=O)OCc1ccccc1)C(=O)N[C@@H](Cc1ccccc1)[C@@H](O)[C@H](O)[C@H](Cc1ccccc1)NC(=O)[C@@H](NC(=O)[C@H](C)NC(=O)OCc1ccccc1)C(C)C,PR-V82F,,,0.015 µM
CC(C)[C@H](NC(=O)OCc1cncs1)C(=O)N[C@@H](Cc1ccccc1)[C@H](O)CN1CCN(Cc2cncs2)C[C@H]1C(=O)NC(C)(C)C,,substrate cleavage,,~0.0005 µM
CC(C)C[C@H](NC(=O)[C@H](CC(N)=O)NC(=O)CCCCCCCCCCCCCCC(=O)N[C@@H](CC(N)=O)C(=O)N[C@@H](Cc1ccccc1)C(=O)O)C(=O)N[C@@H](Cc1ccccc1)C(N)=O,,,,>5.5 µM
CC(C)C[C@H](NC(=O)[C@@H](NC(=O)CCCCCCCCCCCCCCC(=O)N[C@@H](CC(N)=O)C(=O)N[C@@H](Cc1ccccc1)C(=O)O)C(C)O)C(=O)N[C@@H](Cc1cc(I)c(Oc2cc(I)c(O)c(I)c2)c(I)c1)C(N)=O,,HPLC,,0.4 µM
CC(C)(C)NC(=O)[C@@H]1CCCN1C(=O)[C@@H](O)[C@H](CC1CCCCC1)NC(=O)[C@H](CS(C)(=O)=O)NC(=O)OCc1cccc2ccccc12,,,,<5 µM
CC(C)[C@H](NC(=O)OCc1ccccc1)C(=O)N[C@@H](Cc1ccccc1)[C@@H](O)CNC[C@H](O)[C@H](Cc1ccccc1)NC(=O)[C@@H](NC(=O)OCc1ccccc1)C(C)C,,HPLC,pH 5.5,>10 µM
CC(C)C[C@H](NC(=O)[C@@H](NC(=O)CCCCCCCCCCCCCCC(=O)N[C@@H](CC(N)=O)C(=O)N[C@@H](CCc1ccccc1)C(=O)O)C(C)C)C(=O)N[C@@H](Cc1ccccc1)C(N)=O,,HPLC,,0.53 µM
CC(C)C[C@H](NC(=O)[C@@H](NC(=O)CCCCCCCCCCCCCCC(=O)N(O)[C@@H](CC(N)=O)C(=O)N[C@@H](Cc1ccccc1)C(=O)O)C(C)O)C(=O)N[C@@H](Cc1ccccc1)C(N)=O,,,,4.4 µM
CC(C)(C)NC(=O)[C@@H]1Cc2ccccc2CN1C(=O)[C@@H](O)[C@H](Cc1ccccc1)NC(=O)[C@H](CC(N)=O)NC(=O)OCc1ccccc1,,,,>0.05 µM
CC(C)C[C@H](NC(=O)[C@@H](NC(=O)CCCCCCCCCCCCCCC(=O)N[C@@H](CS(C)=O)C(=O)N[C@@H](Cc1ccccc1)C(=O)O)C(C)O)C(=O)N[C@@H](Cc1ccccc1)C(N)=O,,,,11.89 µM
CC(C)(C)NC(=O)[C@@H]1C[C@H](c2ccccc2)CN1C(=O)[C@@H](O)[C@H](Cc1ccccc1)NC(=O)[C@H](CC(N)=O)NC(=O)OCc1ccccc1,,,,>0.05 µM
CC(C)[C@H](NC(=O)[C@H](C)NC(=O)[C@H](CO)NC(=O)OCc1ccccc1)C(=O)N[C@@H](Cc1ccccc1)[C@@H](O)[C@H](O)[C@H](Cc1ccccc1)NC(=O)[C@@H](NC(=O)[C@H](C)NC(=O)[C@H](CO)NC(=O)OCc1ccccc1)C(C)C,,,,0.017 µM
COc1ccc(CN2CCN(C[C@@H](O)[C@H](Cc3ccccc3)NC(=O)[C@@H](NC(=O)OCc3cnc(C(C)C)s3)C(C)C)[C@H](C(=O)NC(C)(C)C)C2)cc1OC,,substrate cleavage,,<0.0005 µM
CC(C)[C@H](NC(=O)[C@H](C)NS(=O)(=O)Cc1ccccc1)C(=O)N[C@@H](Cc1ccccc1)C(O)C(O)[C@H](Cc1ccccc1)NC(=O)[C@@H](NC(=O)[C@H](C)NS(=O)(=O)Cc1ccccc1)C(C)C,,,,0.023 µM
CC(C)C[C@H](NC(=O)CCCCCCCCCCCCCCC(=O)N[C@@H](CS(C)(=O)=O)C(=O)N[C@@H](Cc1ccccc1)C(=O)O)C(=O)N[C@@H](CC(C)C)C(=O)N[C@@H](Cc1ccccc1)C(N)=O,,HPLC,,0.47 µM
CC(C)C[C@H](NC(=O)[C@@H](NC(=O)CCCCCCCCCCCCCCC(=O)N[C@@H](CC(N)=O)C(=O)N[C@@H](Cc1ccccc1)C(=O)O)C(C)O)C(=O)N[C@@H](Cc1ccc(-c2ccccc2)cc1)C(N)=O,,,,1.1 µM
CC(C)(C)NC(=O)[C@@H]1CCCN1C(=O)[C@H](O)[C@H](Cc1ccccc1)NC(=O)[C@H](CC(N)=O)NC(=O)OCc1ccccc1,,,,>5 µM
CC(C)(C)OC(=O)N[C@@H](Cc1ccccc1)[C@H](O)CNC[C@@H](O)[C@H](Cc1ccccc1)NC(=O)C1NC(=O)OC1(C)C,,HPLC,pH 5.5,<10 µM
COc1ccc(CN2CCN(C[C@@H](O)[C@H](Cc3ccccc3)NC(=O)[C@@H](NC(=O)OCc3csc(C(C)C)n3)C(C)C)[C@H](C(=O)NC(C)(C)C)C2)cc1OC,,substrate cleavage,,<0.0005 µM

Repeating the final 4 entries:

compound | changes | read by | setting | value
CC(C)C[C@H](NC(=O)[C@@H](NC(=O)CCCCCCCCCCCCCCC(=O)N[C@@H](CC(N)=O)C(=O)N[C@@H](Cc1ccccc1)C(=O)O)C(C)O)C(=O)N[C@@H](Cc1ccc(-c2ccccc2)cc1)C(N)=O |  |  |  | 1.1 µM
CC(C)(C)NC(=O)[C@@H]1CCCN1C(=O)[C@H](O)[C@H](Cc1ccccc1)NC(=O)[C@H](CC(N)=O)NC(=O)OCc1ccccc1 |  |  |  | >5 µM
CC(C)(C)OC(=O)N[C@@H](Cc1ccccc1)[C@H](O)CNC[C@@H](O)[C@H](Cc1ccccc1)NC(=O)C1NC(=O)OC1(C)C |  | HPLC | pH 5.5 | <10 µM
COc1ccc(CN2CCN(C[C@@H](O)[C@H](Cc3ccccc3)NC(=O)[C@@H](NC(=O)OCc3csc(C(C)C)n3)C(C)C)[C@H](C(=O)NC(C)(C)C)C2)cc1OC |  | substrate cleavage |  | <0.0005 µM